Results of unrelated studies side by side (data: NIAID ChemDB).

Common to all: target-level tests; agent: HIV-1; target: Protease

Conditions beyond the fields shown may differ between rows.

SMILES	strain or isolate	read by	setting	endpoint	result
CC(C)[C@H](NC(=O)COc1cccnc1)C(=O)N[C@@H](Cc1ccccc1)[C@H](O)C(=O)N1CSC[C@H]1C(=O)NC(C)(C)C				IC50	~0.05 µM
CCOC(=O)C1=CN(Cc2ccccc2)C2C(CO)(C3N(Cc4ccccc4)C=C(C(=O)OCC)[C@H](c4ccccc4)C23CO)[C@H]1c1ccccc1				Ki	5.8 µM
Cc1cc(N)cc(C)c1SCC(=O)N[C@@H](Cc1ccccc1)C[C@H](O)[C@H](Cc1ccccc1)NC(=O)O[C@H]1CO[C@H]2OCC[C@H]21				IC50	<0.001 µM
CC(C)(C)NC(=O)[C@@H]1CSCN1C(=O)[C@@H](O)[C@H](Cc1ccccc1)NC(=O)[C@H](CS(C)(=O)=O)NC(=O)COc1cccc(C(=O)N2CCCCC2)c1				IC50	<0.05 µM
COc1cccc(C)c1OCC(=O)N[C@@H](Cc1ccccc1)C[C@H](O)[C@H](Cc1ccccc1)NC(=O)O[C@H]1CO[C@H]2OCC[C@H]21				IC50	<0.0005 µM
CC(C)C[C@@H](C=O)NC(=O)[C@H](CC(C)C)NC(=O)[C@H](CC(C)C)NC(=O)OCc1ccccc1				IC50	>100 µM
Cc1ccc2nc(C(=O)N[C@@H](CC(N)=O)C(=O)N[C@@H](Cc3ccccc3)[C@H](O)Cc3ccccc3C(=O)NC(C)(C)C)ccc2c1		fluorescence		IC50	0.001 µg/mL
CC(=O)NC(C(=O)NC[C@H]1O[C@@H](Oc2ccccc2)[C@H](O)[C@@H](OCc2ccccc2)[C@@H]1O)C(C)C				IC50	>100 µM
CC(C)(C)NC(=O)c1ccccc1C[C@@H](O)[C@H](CC1CCCCC1)NC(=O)[C@H](CC(N)=O)NC(=O)c1cc(Cl)c2ccccc2n1		fluorescence		IC50	0.00077 µg/mL
COc1ccc(S(=O)(=O)N(CC(C)C)C[C@@H](O)[C@H](Cc2ccccc2)NC(=O)O[C@H]2CC3COC4OC2CC34)cc1	LAI	substrate cleavage / fluorescence		Ki	0.000034 µM
CCCC[C@H](NC(=O)[C@@H](NC(=O)[C@@H](NC(=O)c1cnc2ccccc2n1)[C@@H](C)O)[C@@H](C)CC)C(=O)CC(Cc1ccc2ccccc2c1)C(=O)N[C@@H](CCC(N)=O)C(N)=O		fluorescence		IC50	1.11 µM
CC(C)(C)C(=O)OC[C@@H]1[C@@H](O)[C@H](OC(=O)C(C)(C)C)[C@H](O)C[NH+]1Cc1ccccc1				IC50	>100 µM
CC[C@H](C)[C@H](NC(=O)[C@@H](C[C@H](O)[C@H](CC1CCCCC1)NC(=O)CC(C)(C)C)C(C)C)C(=O)NCc1ccccn1				Ki	0.08 µM
CCCC[C@H](NC(=O)[C@@H](NC(=O)[C@@H](NC(=O)c1cnc2ccccc2n1)[C@@H](C)O)[C@@H](C)CC)C(O)CC(Cc1ccc2ccccc2c1)C(=O)N[C@@H](CCC(N)=O)C(=O)N[C@@H](CCCN=C(N)N)C(N)=O		fluorescence		IC50	0.085 µM
COc1cc(CN2C(=O)N(Cc3ccc(N)c(OC)c3)N(C(=O)CCc3ccccc3)C[C@@H](O)[C@H]2Cc2ccccc2)ccc1N		fluorescence	pH 7.0	IC50	<0.0005 µM
Cc1cc(N)cc(C)c1OCC(=O)N[C@@H](Cc1ccccc1)C[C@H](O)[C@H](Cc1ccccc1)NC(=O)O[C@H]1CO[C@H]2OCC[C@H]21				IC50	<0.0005 µM
CC(C)CNC(=O)[C@@H](NC(=O)[C@H](Cc1ccccc1)NC(=O)[C@H](O)[C@H](Cc1ccccc1)NC(=O)[C@@H](NC(=O)OCc1ccccc1)C(C)C)C(C)C				IC50	>5 µM
Cc1cc(O)cc(C)c1OCC(=O)N[C@@H](Cc1ccccc1)C[C@H](O)[C@H](Cc1ccccc1)NC(=O)O[C@H]1CO[C@H]2OCC[C@H]21				IC50	<0.0005 µM
CO[C@H]1[C@H](OCc2ccccc2)[C@@H](O)[C@H](Oc2ccccc2)O[C@@H]1CNC(=O)C(NC(C)=O)C(C)C				IC50	>100 µM
CC(C)(C)NC(=O)C1N(C(=O)[C@@H](O)[C@H](Cc2ccccc2)NC(=O)[C@H](CS(C)(=O)=O)NC(=O)COc2cccc3ccccc23)CSC1(C)C				IC50	<0.05 µM
CCCCC(CC(=O)[C@H](CCCC)NC(=O)c1cnc2ccccc2n1)C(=O)N[C@@H](CCC(N)=O)C(=O)N[C@@H](CCCN=C(N)N)C(N)=O		fluorescence		IC10	26 µM
Cc1ccc(O)c(C)c1OCC(=O)N[C@@H](Cc1ccccc1)C[C@H](O)[C@H](Cc1ccccc1)NC(=O)O[C@H]1CO[C@H]2OCC[C@H]21				IC50	<0.0005 µM
CC(C)C[C@H](NC[C@H](CC1CCCCC1)NC(=O)[C@@H](NC(=O)C1Cc2ccccc2CN1)C(C)C)C(=O)N[C@@H](CC(C)C)C(=O)N[C@@H](Cc1ccccc1)C(N)=O		HPLC		IC50	0.08 µM
CC(C)(C)CNC(=O)[C@@H]1CCCN1C(=O)[C@@H](O)[C@H](Cc1ccccc1)NC(=O)[C@H](CC(N)=O)NC(=O)OCc1ccccc1				IC50	<5 µM
CCCC[C@H](NC(=O)[C@@H](NC(=O)[C@@H](NC(=O)c1ccc2ccccc2n1)[C@@H](C)O)[C@@H](C)CC)C(O)CC(Cc1ccc2ccccc2c1)C(=O)N[C@@H](CCC(N)=O)C(=O)N[C@@H](CCCN=C(N)N)C(N)=O		fluorescence		IC50	0.037 µM
COc1cc(CN2C(=O)N(Cc3ccc(O)c(OC)c3)N(C(=O)CCc3cccnc3)C[C@@H](O)[C@H]2Cc2ccccc2)ccc1O		fluorescence		IC50	<0.0005 µM
CN1CCN(C(=O)[C@@H]2O[C@@H]3CN(Cc4ccccc4)C(=O)[C@H]2O3)CC1		FRET		IC50	2.6 µM
COc1cc(CN2C(=O)N(Cc3ccc(O)c(OC)c3)N(C(=O)CCc3ccc(F)cc3)C[C@@H](O)[C@H]2Cc2ccccc2)ccc1O		fluorescence		IC50	<0.0005 µM
Cc1cn([C@@H]2C[C@@H](N=[N+]=[N-])[C@H](COC(=O)C(C)C(C)C(=O)N[C@@H](Cc3ccccc3)[C@H](O)C(=O)N3CSC[C@H]3C(=O)NC(C)(C)C)O2)c(=O)[nH]c1=O				IC50	>5 µM
COc1cc(CN2C(=O)N(Cc3ccc(O)c(OC)c3)N(C(=O)CCc3ccc4c(c3)OCO4)C[C@@H](O)[C@H]2Cc2ccccc2)ccc1O		fluorescence		IC50	<0.0005 µM
CC(C)(C)NC(=O)[C@@H]1CSCN1C(=O)[C@@H](O)[C@H](Cc1ccccc1)NC(=O)CC(C)(C)C(=O)O				IC50	<5 µM
CC(C)(C)NC(=O)c1ccccc1C[C@@H](O)[C@H](Cc1ccccc1)NC(=O)[C@H](CC(N)=O)NC(=O)OCc1ccccc1		fluorescence		IC50	0.001 µg/mL
COc1cc(CN2C(=O)N(Cc3ccc(O)c(OC)c3)N(C(=O)CCCc3ccccc3)C[C@@H](O)[C@H]2Cc2ccccc2)ccc1O		fluorescence		IC50	<0.0005 µM
Cc1cn([C@@H]2C[C@@H](N=[N+]=[N-])[C@H](COC(=O)C(C)(C)CC(=O)N[C@@H](Cc3ccccc3)[C@H](O)C(=O)N3CSC[C@H]3C(=O)NC(C)(C)C)O2)c(=O)[nH]c1=O				IC50	>5 µM
CC[C@H](C)[C@H](NC(=O)[C@@H]1CCCN1C[C@H](Cc1ccccc1)NC(=O)[C@H](CC(N)=O)NC(=O)[C@H](CCC(N)=O)NC(=O)[C@H](CO)NC(=O)[C@@H](N)C(C)C)C(=O)N[C@H](C(=O)O)C(C)C				Ki	3.52 µM
O=C(CCc1ccccc1)N1C[C@@H](O)[C@@H](Cc2ccccc2)N(Cc2ccc(O)cc2)C(=O)N1Cc1ccc(O)cc1		fluorescence	pH 7.0	IC50	<0.0005 µM

Repeating the final 3 entries:

Cc1cn([C@@H]2C[C@@H](N=[N+]=[N-])[C@H](COC(=O)C(C)(C)CC(=O)N[C@@H](Cc3ccccc3)[C@H](O)C(=O)N3CSC[C@H]3C(=O)NC(C)(C)C)O2)c(=O)[nH]c1=O ; endpoint: IC50 ; result: >5 µM
CC[C@H](C)[C@H](NC(=O)[C@@H]1CCCN1C[C@H](Cc1ccccc1)NC(=O)[C@H](CC(N)=O)NC(=O)[C@H](CCC(N)=O)NC(=O)[C@H](CO)NC(=O)[C@@H](N)C(C)C)C(=O)N[C@H](C(=O)O)C(C)C ; endpoint: Ki ; result: 3.52 µM
O=C(CCc1ccccc1)N1C[C@@H](O)[C@@H](Cc2ccccc2)N(Cc2ccc(O)cc2)C(=O)N1Cc1ccc(O)cc1 ; read by: fluorescence ; setting: pH 7.0 ; endpoint: IC50 ; result: <0.0005 µM

ICn: concentration for n% inhibition. Blank or dashed fields: not listed here.